The subject of the data set is Mus musculus. In words: Acute toxicity in ip dosed Swiss-Webster mouse measured after 72 hrs. The class given is organism-based. The settings on record: in vivo.

`CN(CC(=O)O)[N+](=O)[O-]` returned a 50% lethal dose (LD50) of 1.84 mmol/kg.

The LD50 is the dose expected to kill half of the subjects tested. Low values mean a more toxic substance, high ones a less toxic substance.

(Values after ChEMBL document CHEMBL3244321, “Nitramino acids. Synthesis and biological evaluation of 1-nitroproline, 1-nitropipecolic acid, and N-nitrosarcosine” (J Med Chem, 1977).)
